Anti-infective test results gathered from many reports (values: NIAID ChemDB through PubChem).

Common to all: whole-cell or culture tests; species: Reovirus; strain or isolate: TYPE 1; cells: VERO; read-out: EC50

ECn: concentration that inhibits the pathogen or its effect by n%.

CC1(C)[C@@H](CO)CC[C@@]1(C)Cn1cnc2c(=O)[nH]cnc21 ; read by: cytopathic effect ; result: >400 µg/mL
CC1(CO)CCC(Cc2nc3ncnc(N)c3[nH]2)C1(C)C ; read by: cytopathic effect ; result: >10 µg/mL
CC1(C)[C@@H](CCO)C[C@H]1n1cnc2c(N)nc(N)nc21 ; read by: cytopathic effect ; result: >400 µg/mL
CC1(CO)CCC(Cn2ccc(=O)[nH]c2=O)C1(C)C ; read by: cytopathic effect ; result: >400 µg/mL
CC(=O)OCCOCN1C=CC(=O)NS1(=O)=O ; result: >400 µg/mL
Cc1cn([C@@H]2O[C@H](CO)[C@](O)(C(F)(F)F)[C@H]2O)c(=O)[nH]c1=O ; read by: cytopathic effect ; result: >200 µg/mL
CC=NC(=N)c1nc(-c2ccccc2)n(COCCO)n1 ; read by: cytopathic effect ; result: 150 µg/mL
Nc1ccn(CCCC(O)CF)c(=O)n1 ; read by: cytopathic effect ; result: >400 µg/mL
OC[C@H]1O[C@H](c2cc(Cl)c(F)cc2F)C[C@@H]1O ; read by: cytopathic effect ; result: >80 µg/mL
Nc1ncnc2c1ncn2C1CC(COP(=O)(O)O)[C@@H](O)[C@H]1O ; read by: cytopathic effect ; result: ≥10 µg/mL
CC1(C)[C@@H](CCO)C[C@H]1n1nnc2c(N)ncnc21 ; read by: cytopathic effect ; result: >100 µg/mL
CC(=O)OCCOCN1C(=N)/C(=C(\C)O)C(N)=NS1(=O)=O ; result: >400 µg/mL
C=C(N=CC)c1nc(-c2cccc(C)c2)n(C2O[C@H](CO)[C@@H](O)[C@H](O)[C@H]2O)n1 ; read by: cytopathic effect ; result: >100 µg/mL
CC(C)Nc1ncnc2c1ncn2C1C[C@H](CO)[C@@H](CO)C1 ; result: >100 µg/mL
CC1(C)[C@@H](CCO)C[C@H]1n1cnc2c(=O)[nH]cnc21 ; read by: cytopathic effect ; result: >400 µg/mL
CC1(C)[C@@H](CO)CC[C@@]1(C)Cn1cnc2c(Cl)ncnc21 ; read by: cytopathic effect ; result: >400 µg/mL
C[C@@]1(O)[C@@H](CO)O[C@@H](n2cnc3c(N)ncnc32)[C@@H]1O ; read by: cytopathic effect ; result: 20 µg/mL
Cc1cn([C@@H]2OC[C@H](CO)[C@H]2O)c(=O)[nH]c1=O ; read by: cytopathic effect ; result: >80 µg/mL
CC(=O)Nc1nc2c(CC(O)CO)nc(C)n2c(=O)[nH]1 ; read by: cytopathic effect ; result: >200 µg/mL
CC1(CO)CCC(Cn2nnc3c(=O)[nH]cnc32)C1(C)C ; read by: cytopathic effect ; result: >400 µg/mL
C=C(N=CC)c1nc(-c2ccc(C)cc2)n(C2O[C@H](CO)[C@@H](O)[C@H](O)[C@H]2O)n1 ; read by: cytopathic effect ; result: >100 µg/mL
Cc1nc(CC(O)CO)c2nc[nH]c(=O)n12 ; read by: cytopathic effect ; result: >400 µg/mL
Nc1ncnc2c1ncn2[C@@H]1C[C@H](COP(=O)(O)O)[C@@H](O)[C@H]1O ; read by: cytopathic effect ; result: >200 µg/mL
C=C(N=CC)c1nc(-c2ccc(OC)cc2)n([C@@H]2O[C@H](CO)[C@@H](O)[C@H]2O)n1 ; read by: cytopathic effect ; result: >100 µg/mL
CC(=O)OCCOCN1C(N)=CC(N)=NS1(=O)=O ; result: >400 µg/mL
O=c1ccn([C@@H]2C[C@H](CO)C[C@H]2CO)c(=O)[nH]1 ; result: >100 µg/mL
C=CCc1nc(C)n2c(=O)[nH]cnc12 ; read by: cytopathic effect ; result: >200 µg/mL
COc1cc2c(cc1OC)[C@@H]1C(N)CSCON1CC2 ; read by: cytopathic effect ; result: 0.2 µg/mL
[N-]=[N+]=NC(CBr)c1cc([C@H]2C[C@H](O)[C@@H](CO)O2)c(F)cc1F ; read by: cytopathic effect ; result: >16 µg/mL
CC=NC(=N)c1nc(-c2ccc(OC)cc2)n(COCCO)n1 ; read by: cytopathic effect ; result: 150 µg/mL
O=c1[nH]c(=O)n([C@@H]2C[C@H](CO)C[C@H]2CO)cc1I ; result: >100 µg/mL
CC1(C)[C@@H](CO)CC[C@@]1(C)Cn1cnc2c(N)ncnc21 ; read by: cytopathic effect ; result: >400 µg/mL
CC=NC(=N)c1nc(-c2ccc(OC)cc2)n(C/C=C/c2ccccc2)n1 ; read by: cytopathic effect ; result: >100 µg/mL
CO[C@H](CO)[C@@H](O)CCn1cnc2c(N)ncnc21 ; read by: cytopathic effect ; result: >400 µg/mL
Cc1cn([C@@H]2OC[C@H](CO)[C@H]2N=[N+]=[N-])c(=O)[nH]c1=O ; read by: cytopathic effect ; result: >80 µg/mL
Nc1nc2c(ncn2CCCC(O)CF)c(=O)[nH]1 ; read by: cytopathic effect ; result: >400 µg/mL
NC1CSCON2CCc3c([nH]c4ccccc34)[C@H]12 ; read by: cytopathic effect ; result: 0.4 µg/mL
CC=NC(=N)c1nc(-c2cccc(OC)c2)n(C/C=C/c2ccccc2)n1 ; read by: cytopathic effect ; result: >40 µg/mL
Cc1cn(CC[C@H](O)CCO)c(=O)[nH]c1=O ; read by: cytopathic effect ; result: >400 µg/mL
C=C(N=CC)c1nc(-c2ccc(C)cc2)n([C@@H]2O[C@H](CO)[C@@H](O)[C@H]2O)n1 ; read by: cytopathic effect ; result: >40 µg/mL
Nc1nc2c(ncn2[C@H]2OC[C@@H](CO)C2O)c(=O)[nH]1 ; read by: cytopathic effect ; result: >16 µg/mL
CC(=O)OCCOCN1C=CC(=O)N(COCCO)S1(=O)=O ; result: >400 µg/mL
NC1CCCON2CCc3c([nH]c4ccccc34)[C@H]12 ; read by: cytopathic effect ; result: 2 µg/mL
CO[C@H](CO)[C@@H](O)CCn1ccc(N)nc1=O ; read by: cytopathic effect ; result: >400 µg/mL
CC(=O)OCCOCN1C=C(C#N)C(N)=NS1(=O)=O ; result: >400 µg/mL

2 of the rows above, restated:

C=C(N=CC)c1nc(-c2ccc(C)cc2)n([C@@H]2O[C@H](CO)[C@@H](O)[C@H]2O)n1 ; read by: cytopathic effect ; result: >40 µg/mL
CC(=O)OCCOCN1C=CC(=O)NS1(=O)=O ; result: >400 µg/mL

Lines come from different laboratories, so protocols vary.